Data on one compound can be found in patent publication US20250241971A1 (priority 2022, published 2025).

The subject of the data set is genes linked to inflammation (il1b, il8, il1a). The data set can be described thus: Expression of inflammation-linked genes in pig jejunum explants ex vivo. To be noted: explants exposed to 10 μM DON alone; FIG. 6.

With `CC1=C[C@H]2O[C@@H]3[C@H](O)C[C@](C)([C@@]2(CO)[C@H](O)C1=O)[C@]31CO1` [DON, Deoxynivalenol], the “production of gene transcripts linked to inflammation” value is “leads to an increase in the production of gene transcripts linked to inflammation”.
